Some results come without the dose or concentration used.
System: DPH1
Assay: RNA-sequencing of CD123+ sorted blasts before and after SL-401
Format: in vivo, human
Conditions: 2 AML patients, pre & post 2 cycles

B1: tagraxofusp (protein)
chain: MGADDVVDSSKSFVMENFSSYHGTKPGYVDSIQKGIQKPKSGTQGNYDDDWKGFYSTDNKYDAAGYSVDNENPLSGKAGGVVKVTYPGLTKVLALKVDNAETIKKELGLSLTEPLMEQVGTEEFIKRFGDGASRVVLSLPFAEGSSSVEYINNWEQAKALSVELEINFETRGKRGQDAMYEYMAQACAGNRVRRSVGSSLSCINLDWDVIRDKTKTKIESLKEHGPIKNKVISESPNKTVSEEKAKQYLEEFHQTALEHPELSELKTVTGTNPVFAGANYAAWAVNVAQVIDSETADNLEKTTAALSILPGIGSVMGIADGAVHHNTEEIVAQSIALSSLMVAQAIPLVGELVDIGFAAYNFVESIINLFQVVHNSYNRPAYSPGHKTRPHMAPMTQTTSLKTSWVNCSNMIDEIITHLKQPPLPLLDFNNLNGEDQDILMENNLRRPNLEAFNRAVKSLQNASAIESILKNLLPCLPLATAAPTRHPIHIKDGDWNEFRRKLTFYLKTLENAQAQQTTLSLAW
For B1, the “change of DPH1 after exposure (mean)” value was −2.1 fold.

Source: US11674950B2, “Methods determining and treating cellular resistance to ADP-rtbosylating toxin” (priority 2017, dated 2023)
